Data: paper PMC8775380, “A Complexed Crystal Structure of a Single-Stranded DNA-Binding Protein with Quercetin and the Structural Basis of Flavonol Inhibition Specificity” (International Journal of Molecular Sciences, 2022)
Construct, isoform or probe ends are uncertain for at least one entry. Protein sequences can lack the tags named with them.

Target: T1, PaSSB (single-stranded DNA-binding protein) (Pseudomonas aeruginosa) (UniProt P40947)
T1 sequence (looked up, limits assumed): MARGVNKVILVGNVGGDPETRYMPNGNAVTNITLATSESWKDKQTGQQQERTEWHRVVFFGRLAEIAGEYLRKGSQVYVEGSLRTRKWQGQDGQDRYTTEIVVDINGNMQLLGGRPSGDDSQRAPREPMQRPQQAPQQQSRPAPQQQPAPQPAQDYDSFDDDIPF
Assay: EMSA (inhibition)
Details: myricetin 0-100 uM (IC50 is of myricetin), 1.25 uM PaSSB, EMSA: 40 mM Tris-HCl pH 7.5, 50 mM NaCl, 37 °C 60 min, DNA 30 fmol/uL, PaSSB 0-5 uM, 8% native PAGE in TBE, flavonols dissolved in 10% DMSO, recombinant protein, label: biotin (3' in Results, 5' in Methods)

**Q.** How did the IC50 turn out when “TTTTTTTTTTTTTTTTTTTTTTTTTTTTTTTTTTT [dT35]” was run?
**A.** 2800 nM
